Anti-infective test results gathered from many reports (values: NIAID ChemDB through PubChem).

All rows: toxicity to cultured cells; cell line: KB; measure: CC50

Blank or dashed fields: not listed here.

smiles	method	value
C[C@H]1c2ccoc2C[C@H]2[C@H]1[C@@H](O)[C@@H](OC(=O)c1ccccc1)[C@@]1(O)C(C)(C)CCC[C@]21C	-	9.9 µg/mL
OCC(CO)OCn1c(Cl)nc(Cl)c1Cl	-	25 µM
Nc1nc(N)c2ncn([C@H]3CO[C@@H](CO)O3)c2n1	-	>500 µM
COc1cc(/C=C/C(=O)Oc2c(-c3ccc(Cl)cc3)oc3ccccc3c2=O)ccc1O	-	4.4 µM
CC(C)=CC[C@H]1C[C@]2(C[C@H]3CCC(C)(C)C=C3C)C(=O)C3=C(OC(C)(C)CC3)[C@@](C(=O)c3ccccc3)(C2=O)C1(C)C	sulforhodamine / absorbance	>50 µM
CN1CCc2cc3c(cc2C(=O)Cc2ccc4c(c2C1)OCO4)OCO3	sulforhodamine	>3.5 µg/mL
COC(=O)/C(C)=C/C=C/[C@@H](C)C1CC[C@@]2(C)[C@@H]3CC[C@H]4C(C)(C)C(=O)CC[C@]4(C)C3=CC[C@]12C	-	4.07 µM
OC[C@H]1O[C@@H](n2cnc(Cl)c2Cl)[C@H](O)[C@@H]1O	-	>100 µM
COc1cccc2c1C(=O)c1c(O)c3c(c(O)c1C2=O)C[C@@](O)(C(=O)CO)C[C@@H]3O[C@H]1C[C@H](N)[C@H](O)[C@H](C)O1	sulforhodamine	0.56 µg/mL
O=C(/C=C/c1ccc(O)c(O)c1)Oc1c(-c2ccc(Cl)cc2)oc2ccccc2c1=O	-	3.7 µM
OCC1OC(n2cnc3nc4cc(Cl)c(Cl)cc4nc32)C(O)C1O	-	>100 µM
CC(C)Nc1nc2nc3cc(Cl)c(Cl)cc3nc2n1C1OC(CO)C(O)C1O	-	70 µM
[C-]#[N+][C@@]1(C)CC[C@H]2[C@H]3[C@@H](C(=C)CC[C@@H]31)[C@H](C=C(C)C)C[C@@H]2C	-	3.2 µg/mL
OC[C@H]1O[C@@H](n2c(Br)nc(Br)c2Br)[C@@H](O)[C@@H]1O	-	90 µM
Nc1ccn([C@@H]2C[C@@H](O)[C@H](CO)O2)c(=O)n1	-	>100 µM
OC[C@H]1O[C@@H](n2c(Br)nc3cc(Cl)c(Cl)cc32)[C@H](O)[C@@H]1O	-	>100 µM
Cc1c2ccncc2c(C)c2c1[nH]c1ccccc12	-	0.3 µg/mL
CC(=O)OC(C1CC(C)C(=O)O1)C(C)C1C2C3(O)OC4(CCC12C)C(=CCC1C(C)(C)OC2CC(=O)OC21C4O)C3=O	MTT	4.83 µg/mL
OC[C@H]1O[C@@H](n2c(NC3CC3)nc3cc4cc(Cl)c(Cl)cc4nc32)[C@H](O)[C@@H]1O	-	100 µM
COc1cc(C(=O)Oc2c(-c3ccc(Cl)cc3)oc3ccccc3c2=O)ccc1OC(C)=O	-	10.4 µM
O=C1c2c(O)cc(O)cc2O[C@@H](c2ccc(O)cc2)[C@@H]1c1c(O)cc(O)c2c(=O)cc(-c3ccc(O)c(O)c3)oc12	sulforhodamine / absorbance	>50 µM
C[C@@H]1O[C@@H](O[C@@H]2[C@@H](O)[C@H](OCCc3ccc(O)c(O)c3)O[C@H](COC(=O)/C=C/c3ccc(O)c(O)c3)[C@H]2O)[C@H](O)[C@H](O)[C@H]1O	MTT	5.03 µM
OCCOCn1c(Br)nc(Br)c1Br	-	>100 µM
OC[C@H]1O[C@@H](n2cnc3cc4cc(Cl)c(Cl)cc4nc32)[C@H](O)[C@@H]1O	-	>100 µM
CC(=O)O[C@@H](/C=C(\C)C(=O)O)C[C@@H](C)[C@H]1CC[C@@]2(C)C3CC[C@H]4C(C)(C)C(=O)CC[C@]4(C)C3=CC[C@]12C	-	25.26 µM
O=C(/C=C/c1ccc(O)c(O)c1)Oc1c(-c2ccc(Cl)c(Cl)c2)oc2ccccc2c1=O	-	6 µM
CC(C)=CCC[C@@H](C)[C@@H]1CC[C@]2(C)C3=C(CC[C@@]12C)[C@@]1(C)CC[C@H](O)C(C)(C)[C@@H]1CC3	sulforhodamine / absorbance	>50 µM
COc1c2c(cc3c1-c1cc4c(CO)c5c(cc4c[n+]1CC3)OCO5)OCO2	sulforhodamine	>3.79 µg/mL
Nc1ccn([C@H]2CC[C@@H](CO)O2)c(=O)n1	-	100 µM
OCC1OC(n2c(NC3CC3)nc3nc4cc(Cl)c(Cl)cc4nc32)C(O)C1O	-	90 µM
[C-]#[N+][C@@H]1[C@H](C(C)C)CC[C@@H](C)C12C=C(C)CC2	-	>20 µg/mL
OCCc1ccc(O)c(O)c1	MTT	15.05 µM
CC(C)Nc1nc2cc3cc(Cl)c(Cl)cc3cc2n1[C@@H]1O[C@H](CO)[C@@H](O)[C@H]1O	-	146 µM
O=c1[nH]c(=O)n([C@H]2C[C@H](O)[C@@H](CO)O2)c[c]1[Hg+].OCC[S-]	trypan blue	18.9 µg/mL
C[C@](Cl)([C@@H](Br)/C=C/[C@](C)(Cl)CBr)[C@@H](Br)CCl	-	12.4 µg/mL
NC(CS)C(=O)O.O=c1[nH]c(=O)n([C@H]2C[C@H](O)[C@@H](CO)O2)c[c]1[Hg+]	trypan blue	>114 µg/mL
C[C@]1(/C=C/Cl)C[C@](Cl)(CBr)[C@@H](Br)C[C@H]1Cl	-	13.3 µg/mL
COc1ccc(-c2cc(OC)c(O)c(OC)c2O)cc1	sulforhodamine / absorbance	41.94 µM
OC[C@H]1O[C@@H](n2cnc(Br)c2Br)[C@H](O)[C@@H]1O	-	>100 µM
CC(C)C12C=C3CC[C@H]4[C@](C)(C(=O)O)CCC[C@]4(C)[C@]3(CC1)OO2	absorbance	33.17 µg/mL
OC[C@H]1O[C@@H](n2cnc3nc4cc(Cl)c(Cl)cc4cc32)[C@H](O)[C@@H]1O	-	85 µM
COc1cc(CCOC(=O)CCC(=O)CO)cc(O)c1OC	MTT	2.82 µM
CC(C)CNC(=O)[C@@H](N)Cc1ccc(O[P@@]2(=O)CO[C@@H](Cn3cnc4c(N)ncnc43)CO2)cc1	absorbance	>100 µM
OCC1OC(n2c(SCc3ccccc3)nc3nc4cc(Cl)c(Cl)cc4nc32)C(O)C1O	-	20 µM
O=c1[nH]cnc2c1ncn2[C@H]1CC[C@@H](CO)O1	-	>500 µM
O=c1[nH]c(=O)n([C@H]2C[C@H](O)[C@@H](CO)O2)c[c]1[Hg+].OCC(O)C[S-]	trypan blue	53.8 µg/mL
C=C[C@@](C)(Cl)[C@@H](Br)/C=C/[C@](C)(Cl)CBr	-	>20 µg/mL
C/C(=C\C=C\[C@@H](C)C1CC[C@@]2(C)[C@@H]3CC[C@H]4C(C)(C)C(=O)CC[C@]4(C)[C@@]3(O)CC[C@]12C)C(=O)O	-	28.83 µM
Oc1c(Cl)cc(Cl)cc1-c1c(Cl)cc(Cl)c(Oc2ccc(Cl)cc2Cl)c1O	-	2.3 µg/mL
Nc1ncnc2c1ncn2[C@@H]1C[C@@H](O)[C@H](CO)O1	-	>100 µM
C=C[C@](C)(Cl)[C@@H](Br)/C=C/[C@](C)(Cl)CBr	-	>20 µg/mL
O=c1c2cc(O)c(O)cc2oc2cc(O)cc(O)c12	sulforhodamine / absorbance	6.26 µM
OCCc1ccc(O)c(O[C@@H]2O[C@H](CO)[C@@H](O)[C@H](O)[C@H]2O)c1	MTT	5.66 µM
CC(C)(O)[C@H]1CC[C@]2(C)[C@H]3CC[C@@H]4[C@@]5(C)CCCC(C)(C)[C@@H]5[C@@H](O)C[C@@]4(C)[C@]3(C)CC[C@@H]12	-	>20 µg/mL

For reference, 8 entries again:

smiles | method | value
[C-]#[N+][C@@]1(C)CC[C@H]2[C@H]3[C@@H](C(=C)CC[C@@H]31)[C@H](C=C(C)C)C[C@@H]2C | - | 3.2 µg/mL
[C-]#[N+][C@@H]1[C@H](C(C)C)CC[C@@H](C)C12C=C(C)CC2 | - | >20 µg/mL
OCC1OC(n2c(SCc3ccccc3)nc3nc4cc(Cl)c(Cl)cc4nc32)C(O)C1O | - | 20 µM
OC[C@H]1O[C@@H](n2cnc3nc4cc(Cl)c(Cl)cc4cc32)[C@H](O)[C@@H]1O | - | 85 µM
O=c1c2cc(O)c(O)cc2oc2cc(O)cc(O)c12 | sulforhodamine / absorbance | 6.26 µM
Nc1ccn([C@@H]2C[C@@H](O)[C@H](CO)O2)c(=O)n1 | - | >100 µM
C[C@@H]1O[C@@H](O[C@@H]2[C@@H](O)[C@H](OCCc3ccc(O)c(O)c3)O[C@H](COC(=O)/C=C/c3ccc(O)c(O)c3)[C@H]2O)[C@H](O)[C@H](O)[C@H]1O | MTT | 5.03 µM
COc1cc(C(=O)Oc2c(-c3ccc(Cl)cc3)oc3ccccc3c2=O)ccc1OC(C)=O | - | 10.4 µM

Rows are shuffled and stem from different studies. CCn is the concentration with n% toxicity to the cells.